Measured values from several laboratories, pooled; numbers as filed in NIAID ChemDB.

Shared fields: tests in culture; species: Human herpesvirus 6; read-out: EC50

Conditions beyond the fields shown may differ between rows. ECn: concentration that inhibits the pathogen or its effect by n%.

CC(C)Nc1nc2cc(Cl)c(Cl)cc2n1[C@H]1O[C@H](C)[C@H](O)[C@@H]1O ; read by: hybridisation ; strain or isolate: 6B ; cells: MOLT-3 ; result: >100 µM
CCCSc1nc(N)nc2c1ncn2/C=C1/C[C@@H]1CO ; read by: flow cytometry ; strain or isolate: TYPE 6A ; cells: HSB-2 ; result: 9.6 µM
Nc1nc2c(ncn2C[C@]2(CO)C[C@H]2CO)c(=O)[nH]1 ; read by: cytopathic effect ; strain or isolate: Z-29 (subtype 6B) ; cells: MOLT-3 ; result: 3.39 µg/mL
OC[C@H]1CC(n2c(Br)nc3cc(Cl)c(Cl)cc32)[C@H](O)[C@@H]1O ; read by: hybridisation ; strain or isolate: 6B ; cells: MOLT-3 ; result: 15 µM
CCCCCSc1nc(N)nc2c1ncn2/C=C1/C[C@@H]1CO ; read by: flow cytometry ; strain or isolate: TYPE 6B ; cells: HSB-2 ; result: 3.4 µM
Nc1nc2c(ncn2[C@@H]2C[C@H](CO)[C@H]2CO)c(=O)[nH]1 ; strain or isolate: GS (subtype 6A) ; cells: HSB-2 ; result: 1.96 µg/mL
Cc1c(S(=O)(=O)c2ccc(Cl)cc2)c(NC(=O)C(F)(F)F)n(Cc2ccc(Cl)cc2)c1C ; read by: hybridisation ; strain or isolate: Z29 (TYPE 6B) ; cells: MOLT-3 ; result: >10 µg/mL
OC[C@@H]1O[C@@H](n2c(Br)nc3cc(Cl)c(Cl)cc32)[C@H](O)[C@H]1O ; read by: hybridisation ; strain or isolate: 6B ; cells: MOLT-3 ; result: 9.7 µM
Nc1nc2c(ncn2COC(CO)CO)c(=O)[nH]1 ; read by: cytopathic effect ; cells: Human T-lymphoblasts ; result: 6.8 µM
Nc1nc(OCC2CC2)c2ncn(/C=C3/C[C@@H]3CO)c2n1 ; read by: flow cytometry ; strain or isolate: TYPE 6B ; cells: HSB-2 ; result: 1.2 µM
Nc1ncc2c(ncn2COC(CO)CO)n1 ; cells: Human cord blood lymphocytes ; result: 0.012 µM
O=C(O)P(=O)(O)O ; read by: flow cytometry ; strain or isolate: GS (subtype 6A) ; cells: HSB-2 ; result: 13.7 µM
NC(=O)c1c(Cl)c(-c2cccnc2)n2c1CCCC2 ; read by: hybridisation ; strain or isolate: TYPE A (GS) ; cells: HSB-2 ; result: 0.053 µM
N#CC1C(c2ccc(Cl)cc2)Nc2sccc2S1(=O)=O ; read by: cytopathic effect ; strain or isolate: GS (TYPE 6A) ; cells: HSB-2 ; result: 1.8 µg/mL
O=C(NCc1ccc(Cl)cc1)c1cn2c3c(cc(CN4CCOCC4)cc3c1=O)OC(c1cccnc1)C2 ; read by: antigen / flow cytometry ; strain or isolate: Z-29 (TYPE B) ; cells: CBL ; result: >18.8 µM
Nc1nc2c(ncn2COC(CO)CO)c(=O)[nH]1 ; read by: antigen ; strain or isolate: GS ; cells: HSB-2 ; result: 25 µM
Nc1nc2c(ncn2CCC(CO)CO)c(=O)[nH]1 ; strain or isolate: Z-29 (subtype 6B) ; cells: MOLT-3 ; result: >100 µg/mL
Nc1nc2c(ncn2COC(CO)CO)c(=O)[nH]1 ; read by: hybridisation ; strain or isolate: Z29 (TYPE 6B) ; cells: MOLT-3 ; result: 68.6 µM
N#CC1C(c2ccccc2)Nc2sccc2S1(=O)=O ; read by: cytopathic effect ; strain or isolate: Z29 (TYPE 6B) ; cells: MOLT-3 ; result: >20 µg/mL
Nc1nc(Cl)c2ncn(/C=C3/C[C@H]3CO)c2n1 ; read by: ELISA ; strain or isolate: GS ; result: 50 µM
Cn1cc(C(=O)NCc2ccc(Cl)cc2)c(=O)c2cc(CN3CCOCC3)ccc21 ; read by: cytopathic effect ; strain or isolate: 1 isolates ; result: >100 µM
Nc1nc(NC2CC2)c2ncn(/C=C3/C[C@@H]3CO)c2n1 ; read by: flow cytometry ; strain or isolate: TYPE 6B ; cells: CBL ; result: 1.6 µM
Nc1nc2c(ncn2COC(CO)CO)c(=O)[nH]1 ; strain or isolate: GS (subtype 6A) ; cells: HSB-2 ; result: 8 µg/mL
O=c1[nH]c(=O)n([C@@H]2O[C@H](CO)[C@@H](O)[C@@H]2O)cc1/C=C/Br ; read by: antigen ; strain or isolate: GS ; cells: HSB-2 ; result: >80 µM
C=CCNc1nc(N)nc2c1ncn2/C=C1/C[C@@H]1CO ; read by: flow cytometry ; strain or isolate: TYPE 6A ; cells: HSB-2 ; result: 8.3 µM
OCC1OC(n2c(Br)nc3cc(Cl)c(Cl)cc32)C(O)C1O ; read by: hybridisation ; strain or isolate: 6B ; cells: MOLT-3 ; result: 45 µM
CC(C)Nc1nc2cc(Cl)c(Cl)cc2n1[C@H]1O[C@@H](CO)[C@H](O)[C@@H]1O ; read by: flow cytometry ; strain or isolate: GS (subtype 6A) ; cells: HSB-2 ; result: >125 µM
C[C@H]1O[C@H](n2c(Br)nc3cc(Cl)c(Cl)cc32)[C@@H](O)[C@H]1O ; read by: hybridisation ; strain or isolate: 6a ; cells: HSB-2 ; result: 10 µM
O[C@@H]1[C@H](O)[C@H](O)CO[C@H]1n1c(Br)nc2cc(Cl)c(Cl)cc21 ; read by: flow cytometry ; strain or isolate: Z-29 (subtype 6B) ; cells: CBL ; result: >95 µM
C#CCNc1nc(N)nc2c1ncn2/C=C1/C[C@@H]1CO ; read by: flow cytometry ; strain or isolate: TYPE 6A ; cells: HSB-2 ; result: 100 µM
Nc1ccn(C[C@@H](CO)OCP(=O)(O)O)c(=O)n1 ; read by: cytopathic effect ; strain or isolate: TYPE 6A ; cells: MOLT-3 ; result: 2 µg/mL
CC(C)Nc1nc2cc(Cl)c(Cl)cc2n1[C@@H]1OC[C@@H](O)[C@H]1O ; read by: hybridisation ; strain or isolate: 6B ; cells: MOLT-3 ; result: 83 µM
Cc1cn([C@H]2C[C@H](N=[N+]=[N-])[C@@H](CO)O2)c(=O)[nH]c1=O ; read by: antigen ; strain or isolate: GS ; cells: HSB-2 ; result: >200 µM
Cn1cc(C(=O)NCc2ccc(Cl)cc2)c(=O)c2cc(CN3CCOCC3)ccc21 ; read by: antigen / flow cytometry ; strain or isolate: GS (TYPE A) ; cells: HSB-2 ; result: >20.1 µM
COc1nc(N)nc2c1ncn2/C=C1/CC1(CO)CO ; read by: flow cytometry ; strain or isolate: TYPE 6A ; cells: HSB-2 ; result: 28.4 µM
Nc1nc2c(ncn2[C@@H]2C[C@H](CO)[C@H]2CO)c(=O)[nH]1 ; cells: Human T-lymphoblasts ; result: 4.9 µM

The first 2 rows once more:

| smiles | read by | strain or isolate | cells | result |
|---|---|---|---|---|
| CC(C)Nc1nc2cc(Cl)c(Cl)cc2n1[C@H]1O[C@H](C)[C@H](O)[C@@H]1O | hybridisation | 6B | MOLT-3 | >100 µM |
| CCCSc1nc(N)nc2c1ncn2/C=C1/C[C@@H]1CO | flow cytometry | TYPE 6A | HSB-2 | 9.6 µM |